# Measurements published in PubChem BioAssay AID1117359 (Southern Research Institute, 2015).
# This is a selection; strong and weak results do not stand in their true shares. Measured potencies and affinities stand elsewhere. The source made the active and inactive calls.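 Rule for the calls: active = viability at or below 80% at any tested concentration, marking the compound as toxic; inactive = the rest.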
# Experiment: viability loss in THP-1 monocytes – THP-1 cells, cytotoxicity control for Vif-APOBEC3G degradation inhibitor project, dose response (AID 1117359)
# Conditions: THP-1 viability, CellTiter-Glo luminescence, 72 h; at 40 µM (top of the series)
row,Compound,viability
1,O=[N+]([O-])c1cccc(NC2=NCC(CBr)S2)c1 (stereo unspecified),inactive: 83%
